Anti-infective test results gathered from many reports (values: NIAID ChemDB through PubChem).

Shared fields: tests on isolated targets; species: HIV-1; protein: Reverse transcriptase; endpoint: fold resistance

a–b is a range or a potency band. Neighbouring rows are from separate reports. Fold resistance has wild type as its base. An empty or dashed field is not shown.

CCC1(c2ccc(COc3ccccc3)cc2)Oc2ccccc2-n2cccc2C1=O ; method: nucleotide incorporation / radiometric ; changes: RT-L100I ; result: 1.3
Cc1occc1C(=S)Nc1ccc(Cl)c(/C=N/OC(C)(C)C)c1 ; changes: RT-V106A ; result: 2.31
Cc1cc(C)cc(S(=O)(=O)c2c(C(=O)NNCCO)[nH]c3ccc(Cl)cc23)c1 ; method: nucleotide incorporation / radiometric ; changes: RT-Y181I ; result: 76
Nc1ncnc2c1ncn2CCOCP(=O)(O)OP(=O)(O)OP(=O)(O)O ; method: nucleotide incorporation / radiometric ; changes: RT-A62V V75I F77L F116Y Q151M ; result: 2.38
CCOCn1c(Cc2ccccc2)c(C(C)C)c(=O)[nH]c1=O ; method: nucleotide incorporation / radiometric ; changes: RT-V106A ; result: 9.7
Nc1nc(=O)n([C@@H]2CC[C@H](COP(=O)(O)OP(=O)(O)OP(=O)(O)O)O2)cc1F ; method: nucleotide incorporation / radiometric ; changes: RT-A62V V75I F77L F116Y Q151M ; result: 1.64
CCN1c2ncc(CCOc3ccc(CCC(=O)NN)c4ccccc34)cc2C(=O)N(C)c2cccnc21 ; method: nucleotide incorporation / radiometric ; changes: RT-Y188L ; result: >10
COc1ccc(CSc2nc(Cc3c(Cl)cccc3Cl)c(C)c(=O)[nH]2)cc1OC ; method: nucleotide incorporation / radiometric ; changes: RT-181I ; result: >333
CCNc1cccnc1N1CCN(C(=O)c2cc3cc4c(cc3[nH]2)OCO4)CC1 ; changes: RT-P236L ; strain: IIIB ; result: 50.2
CCC1(c2cccc(COc3ccccc3)c2)Oc2ccccc2-n2cccc2C1=O ; method: nucleotide incorporation / radiometric ; changes: RT-Y188L ; result: 12.5
CCOc1ccccc1N1CCN(C(=O)c2cc3ccccc3[nH]2)CC1 ; changes: RT-Y181C ; strain: IIIB ; result: >6
CC(=O)c1ccc(C)cc1NC(C(N)=O)c1c(Cl)cccc1Cl ; method: RT activity ; changes: RT-V106A ; strain: IIIB ; result: 12
CCC1(c2ccc(Cn3ccsc3=N)cc2)Oc2ccccc2-n2cccc2C1=O ; method: nucleotide incorporation / radiometric ; changes: RT-Y181I ; result: >6.25
CCOc1ccccc1N1CCN(C(=O)c2cc3cc4c(cc3[nH]2)OCO4)CC1 ; changes: RT-P236L ; strain: IIIB ; result: 20.7
O=c1cnc2ccccc2n1CCNC(=S)Nc1ccc(Br)cn1 ; method: nucleotide incorporation ; changes: RT-K103N ; result: 3.1
CCCCOc1ccc(CSc2nc(Cc3c(Cl)cccc3Cl)c(C)c(=O)[nH]2)cc1 ; method: nucleotide incorporation / radiometric ; changes: RT-K103N ; result: >142.8
O=C(O)Cn1cnc2c(=O)[nH]c(NC(=O)OCc3ccccc3)nc21 ; method: nucleotide incorporation / radiometric ; changes: L100I ; strain: NNRTI-resistant ; result: 6.38
C=C(C)CCOCc1ccc(C2(CC)Oc3ccccc3-n3cccc3C2=O)cc1 ; method: nucleotide incorporation / radiometric ; changes: RT-K103N ; result: >3.57
Cc1ccc2c(c1)n(CCNC(=S)Nc1ccc(Br)cn1)c(=O)c1cccn12 ; method: nucleotide incorporation ; changes: RT-K103N ; result: 25
CCC1(c2ccc(CNc3cccc(F)c3)cc2)Oc2ccccc2-n2cccc2C1=O ; method: nucleotide incorporation / radiometric ; changes: RT-Y188L ; result: >25
CC(C)Nc1cccnc1N1CCN(C(=O)c2cc3cc4c(cc3[nH]2)OCO4)CC1 ; changes: RT-P236L ; strain: IIIB ; result: 19.8
O=P(O)(O)OP(=O)(O)O ; changes: RT-Q161L H208Y ; result: 2.9
CCC1(c2ccc(COc3cccnc3)cc2)Oc2ccccc2-n2cccc2C1=O ; method: nucleotide incorporation / radiometric ; changes: RT-V106A ; result: 6.25
Nc1cc(Cl)nc(SCc2ccc3ccccc3c2)n1 ; method: nucleotide incorporation ; changes: RT-P236L ; result: 0.32
Cc1c(Cc2c(Cl)cccc2Cl)nc(SCc2ccc(C(C)C)cc2)[nH]c1=O ; method: nucleotide incorporation / radiometric ; changes: RT-K103N ; result: ~1
Cc1cn([C@H]2CC[C@@H](COP(=O)(O)OP(=O)(O)OP(=O)(O)O)O2)c(=O)[nH]c1=O ; method: nucleotide incorporation / radiometric ; changes: RT-E138A ; result: 0.9
CCN1c2ncc(CCOc3ccc4cc(C(=O)O)ccc4c3)cc2C(=O)N(C)c2cccnc21 ; method: nucleotide incorporation / radiometric ; changes: RT-V106A ; result: 1–10
Nc1nc2c(ncn2[C@H]2C[C@H](O)[C@@H](COP(=O)(O)OP(=O)(O)OP(=O)(O)O)O2)c(=O)[nH]1 ; method: nucleotide incorporation / radiometric ; changes: RT-A62V V75I F77L F116Y Q151M ; result: 0.55
CC(C)=CCN1Cc2cc(Cl)cc3[nH]c(=O)n(c23)C[C@@H]1C ; method: nucleotide incorporation / radiometric ; changes: RT-P225H ; result: 3
Cc1cn([C@@H]2O[C@H](CO[Si](C)(C)C(C)(C)C)C3(OS(=O)(=O)C=C3N)[C@H]2O[Si](C)(C)C(C)(C)C)c(=O)n(C)c1=O ; method: RT activity ; changes: RT-P225H ; strain: IIIB ; result: 2.2
CCN1c2ncc(CCOc3ccc(CC(C)C(=O)O)c4ccccc34)cc2C(=O)Nc2c(C)cc(Cl)nc21 ; method: nucleotide incorporation / radiometric ; changes: RT-K103N Y181C ; result: 1–10
CC(C)=CCOc1cc(NC(=S)c2ccoc2C)ccc1Cl ; changes: RT-L100I ; result: 3.19
CC(C)=CCOc1cc(NC(=S)c2ccoc2C)ccc1Cl ; method: nucleotide incorporation / radiometric ; changes: RT-P225H ; result: 3.2
c1ccc(C2SCc3nc4ccccc4n32)cc1 ; changes: RT-V108I ; result: ~1.5
Nc1ccn([C@H]2CC[C@@H](COP(=O)(O)OP(=O)(O)OP(=O)(O)O)O2)c(=O)n1 ; method: RT activity ; changes: RT-Y181I ; result: 2
Cc1c(Cc2c(F)cccc2F)nc(SCc2ccc(C(C)C)cc2)[nH]c1=O ; method: nucleotide incorporation / radiometric ; changes: RT-K103N ; result: >133
Cc1cc(S(N)(=O)=O)ccc1NC(=O)COc1ccc(Cl)cc1C(=O)c1cc(Cl)cc(C#N)c1 ; method: fluorescence ; changes: RT-V106I ; result: 1.5
CCC1(c2ccc(I)cc2)Oc2ccccc2-n2cccc2C1=O ; method: nucleotide incorporation / radiometric ; changes: RT-L100I ; result: 1.5
Cc1c(Cc2c(F)cccc2F)nc(N(C)C)[nH]c1=O ; method: nucleotide incorporation / radiometric ; changes: RT-K103N ; strain: IIIB ; result: 12.5
C/C=C/CSc1cc(NC(=S)c2ccsc2C)ccc1Cl ; changes: RT-M184V ; result: 1.07
Cc1c(C(C)c2c(F)cccc2F)nc(N(C)C)[nH]c1=O ; method: nucleotide incorporation / radiometric ; changes: RT-Y188L ; result: 7
O=C1c2ccncc2C(=O)N1CCNC(=S)Nc1ccc(Br)cn1 ; method: nucleotide incorporation ; changes: RT-L100I ; result: 14.3
CNc1ccc(Cl)cc1S(=O)(=O)c1ccccc1[N+](=O)[O-] ; changes: RT-Y181I ; result: 2
CCN1c2ncc(CCOc3ccc(C(=O)O)c4ccccc34)cc2C(=O)Nc2c(C)cc(Cl)nc21 ; method: nucleotide incorporation / radiometric ; changes: RT-Y188L ; result: >10
Nc1ccn([C@@H]2CS[C@H](COP(=O)(O)OP(=O)(O)OP(=O)(O)O)O2)c(=O)n1 ; method: nucleotide incorporation / radiometric ; changes: RT-K65R ; result: 11.54
CCc1cc(CCc2nc3ccccc3o2)c(=O)[nH]c1C ; method: nucleotide incorporation ; changes: RT-K103N ; result: 59
COc1ccccc1N1CCN(C(=O)c2cc3cc4c(cc3[nH]2)OCO4)CC1 ; changes: RT-Y181C ; strain: IIIB ; result: >3
CCc1cc(CCc2nc3c(Cl)ccc(Cl)c3o2)c(=S)[nH]c1C ; method: nucleotide incorporation ; changes: RT-Y181C ; result: 2
O=c1c2cccn2ccn1CCNC(=S)Nc1ccc(Br)cn1 ; method: nucleotide incorporation ; changes: RT-Y188L ; result: 33.9
CCc1c(Sc2ccccn2)n(COCc2ccccc2)c(=O)[nH]c1=O ; changes: RT-V106A ; result: 5
Cc1c(C(C)c2c(F)cccc2F)nc(N2CCOCC2)[nH]c1=O ; method: nucleotide incorporation / radiometric ; changes: RT-Y181I ; strain: IIIB ; result: >6670
CCC1(c2cccc(I)c2)Oc2ccccc2-n2cccc2C1=O ; method: nucleotide incorporation / radiometric ; changes: RT-V106A ; result: 2.6
Cc1cc2c(cc1C)n1cccc1c(=O)n2CCNC(=S)Nc1ccc(Br)cn1 ; method: nucleotide incorporation ; changes: RT-Y188L ; result: 10

A second listing of 3 rows from above:

| smiles | method | changes | strain | result |
|---|---|---|---|---|
| CCCCOc1ccc(CSc2nc(Cc3c(Cl)cccc3Cl)c(C)c(=O)[nH]2)cc1 | nucleotide incorporation / radiometric | RT-K103N | - | >142.8 |
| CCC1(c2ccc(Cn3ccsc3=N)cc2)Oc2ccccc2-n2cccc2C1=O | nucleotide incorporation / radiometric | RT-Y181I | - | >6.25 |
| O=C(O)Cn1cnc2c(=O)[nH]c(NC(=O)OCc3ccccc3)nc21 | nucleotide incorporation / radiometric | L100I | NNRTI-resistant | 6.38 |